This is one part of the list. Env chains of viruses from a treatment-interruption trial, translated from the printed DNA. IC50 / IC80 of two broadly neutralizing antibodies; lower = more sensitive virus; >50 µg/ml means not reached and <0.001 µg/ml is below the lowest dose. No active / inactive call.
How the values were obtained:
antibody 10-1074 [1] = experiment: neutralization IC50; higher = virus less sensitive to the antibody
Method: (§1)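 Pseudovirus bearing the Env chain mixed with antibody, from 50 µg/ml in fivefold dilutions, on TZM-bl reporter cells, in duplicate.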

antibody 3BNC117 [2] = experiment: as above
Method: as §1

antibody 10-1074 [3] = experiment: neutralization IC80; higher = virus less sensitive to the antibody
Method: as §1

antibody 3BNC117 [4] = experiment: as above
Method: as §1

Row | Binder | neutralization IC50 (antibody 10-1074 [1]) | neutralization IC50 (antibody 3BNC117 [2]) | neutralization IC80 (antibody 10-1074 [3]) | neutralization IC80 (antibody 3BNC117 [4])
1 | HIV-1 Env, rebound clone, antibody arm (protein) MKVRGMKRNYQHLWGWGTMLLLWMIIMCKAAGNLWVTVYYGVPVWRDAETTLFCASDAKAYDKEVHNVWATHACVPTDPNPQEVRLENVTENFNMWENNMVEQMQTDIISLWDQSLKPCVKLTPLCVTLECTEPKLNSSTNNNSLSSTSNNSQYEEMKNCSFNMTTELRDKQKKVYSLFYKLDIVETDNNSSRYRLINCNMSTLTQACPKVTFEPIPIYYCAPAGFAILKCNDPQFNGTGPCTNVSTVQCTHGIKPVVSTQLLLNGSLAKEQVMIRSKNITDNSKTIIVQLKKPVNITCIRPGNNTRTSIRIGPGQAFYATGEITGDIRKAHCNVSRAEWNRTLQEISTQLQGYFNNKTIIFKNSSGGDLEVTTHSFNCGGEFFYCNTTKLFNSTWYGNETVINGTEASENITLQCRIKQIINMWQRVGQAMYAPPIRGEIRCESNITGLLLTRDGGGGNSSNNETFRPTGGDMRDNWRSELYKYKVVQVEPIGIAPTPAKRRVVEREKRAVGLGAAFLGFLGAAGSTMGAASLTLTVQARQLLSGIVQQQSNLLRAIEAQQHLLKLTVWGIKQLQARVLAVERYLRDQQLLGIWGCSGKLICTTAVPWNSSWSNKSYKDIWDNMTWMQWDKEVLNYTSIIYSLLEESQNQQEKNEQDLLALDKWASLWSWFDISKWLWYIKIFIMIVGGLIGLRIVFTVLSIINRVRQGYSPLSLQTLTPHPEEPDRPGRINEEGGEQDKGRSIRLVNGFLALAWDDLRSLCLFSYHRLRDFISIAARTVELLGRSSLKGLRLGWEGLKYLGNLLGYWSRELKNSAINLIDTIAIAVAGWTDRVIEIVQGSCRAIRNIPRRIRQGAEKALQ | 0.362 mg/L | 0.108 mg/L | 2.83 mg/L | 0.231 mg/L
2 | HIV-1 Env, rebound clone, antibody arm (protein) MKVRGMKRNYQHLWGWGTMLLFWMIIMCKAAGNLWVTVYYGVPVWRDAETTLFCASDAKAYDKEVHNVWATHACVPTDPNPQEVRLENVTENFNMWENNMVEQMQTDIISLWDQSLKPCVKLTPLCVTLECTEPKLNSSTSNNSLSSTSNNSQYEEMKNCSFNMTTELRDKQKKVYSLFYKLDIVETDNNSSRYRLINCNTSTLTQACPKVTFEPIPIYYCAPAGFAILKCNDPQFNGTGPCTNVSTVQCTHGIKPVVSTQLLLNGSLAKEQVMIRSKNITDNSKTIIVQLKKPVNITCIRPGNNTRTSIRIGPGQAFYATGEITGDIRKAHCNVSRAEWNRTLQEISTQLQGYFNNKTIIFKNSSGGDLEVTTHSFNCGGEFFYCNTTKLFNSTWYGNETVINGTEASENITLQCRIKQIINMWQRVGQAMYAPPIRGEIRCESNITGLLLTRDGGGGNSSNNETFRPTGGDMRDNWRSELYKYKVVQVEPIGIAPTPAKRRVVEREKRAVGLGAAFLGFLGAAGSTMGAASLTLTVQARQLLSGIVQQQSNLLRAIEAQQHLLKLTVWGIKQLQARVLAVERYLRDQQLLGIWGCSGKLICTTAVPWNSSWSNKSYKDIWDNMTWMQWDKEVLNYTSIIYSLLEESQNQQEKNEQDLLALDKWASLWSWFDISKWLWYIKIFIMIVGGLIGLRIVFTVLSIINRVRQGYSPLSLQTLTPHPEEPDRPGRINEEGGEQDKGRSIRLVNGFLALAWDDLRSLCLFSYHRLRDFISIATRTVELLGRSSLKGLRLGWEGLKYLGNLLGYWSRELKNSAINLIDTIAIAVAGWTDRVIEIVQGSCRAIRNIPRRIRQGAEKALQ | 0.213 mg/L | 0.08 mg/L | 2.38 mg/L | 0.2 mg/L
3 | HIV-1 Env, rebound clone, antibody arm (protein) MKVRGMKRNYQHLWGWGTMLLFWMIIMCKAAGNLWVTVYYGVPVWRDAETTLFCASDAKAYDKEVHNVWATHACVPTDPNPQEVRLENVTENFNMWENNMVEQMQTDIISLWDQSLKPCVKLTPLCVTLECTEPKLNSSTSNNSLSSTSNNSQYEEMKNCSFNMTTELRDKQKKVYSLFYKLDIVETDNNSSRYRLINCNTSTLTQACPKVTFEPIPIYYCAPAGFAILKCNDPQFNGTGPCTNVSTVQCTHGIKPVVSTQLLLNGSLAKEQVMIRSKNITDNSKTIIVQLKKPVNITCIRPGNNTRTSIRIGPGQAFYATGEITGDIRKAHCNVSRAEWNRTLQEISTQLQGYFNNKTIIFKNSSGGDLEVTTHSFNCGGEFFYCNTTKLFNSTWYGNETVINGTEASENITLQCRIKQIINMWQRVGQAMYAPPIRGEIRCESNITGLLLTRDGGGGNSSNNETFRPTGGDMRDNWRSELYKYKVVQVEPIGIAPTPAKRRVVEREKRAVGLGAAFLGFLGAAGSTMGAVSLTLTVQARQLLSGIVQQQSNLLRAIEAQQHLLKLTVWGIKQLQARVLAVERYLRDQQLLGIWGCSGKLICTTAVPWNSSWSNKSYKDIWDNMTWMQWDKEVLNYTSIIYSLLEESQNQQEKNEQDLLALDKWAGLWSWFDISKWLWYIKIFIMIVGGLIGLRIVFTVLSIINRVRQGYSPLSLQTLTPHPEEPDRPGRINEEGGEQDKGRSIRLVNGFLALAWDDLRSLCLFSYHRLRDFISIAARTVELLGRSSLKGLRLGWEGLKYLGNLLGYWSRELKNSAINLIDTIAIAVAGWTDRVIEIVQGSCRAIRNIPRRIRQGAEKALQ | 0.076 mg/L | 0.043 mg/L | 0.559 mg/L | 0.094 mg/L

Reference: the supplement of paper PMC12637763
